Assays:
[1] = tested on: MAGE2.157-, HBV Pol.455- and HIV Pol.476-specific CTL lines; experiment: IFNγ release (in situ capture ELISA) from murine CTL lines with peptide-pulsed .221A2.1 APC; type: cell-based, HLA-A2.1/K^bxs transgenic mice; conditions: dose titration
[2] = tested on: MAGE2.157-, HBV Pol.455- and HIV Pol.476-specific CTL lines; experiment: Th2 cytokine (IL10/IL5) production by murine CTL lines, ELISA; type: cell-based, HLA-A2.1/K^bxs transgenic mice; conditions: for fold lower peptide concentration than wildtype inducing significant IL10 (50 pg/ml): dose titration; for Th2 cytokines: minimum peptide concentration required to induce 50 pg/ml of IL10 or IL15: murine CTL lines

| Structure (SMILES) | fold lower dose than wildtype peptide stimulating significant IFNγ (100 pg/well) [1] | fold lower peptide concentration than wildtype inducing significant IL10 (50 pg/ml) [2] | Th2 cytokines: minimum peptide concentration required to induce 50 pg/ml of IL10 or IL15 [2] |
| --- | --- | --- | --- |
| CC(C)C[C@H](NC(=O)[C@H](CCCNC(=N)N)NC(=O)[C@@H]1CCCN1C(=O)[C@@H](NC(=O)[C@H](Cc1ccc(O)cc1)NC(=O)[C@H](CCCNC(=N)N)NC(=O)[C@H](CO)NC(=O)[C@H](CC(C)C)NC(=O)CN)C(C)C)C(=O)O [HBV Pol.455 P7] | 100 fold | 100 fold | 10^−2 μg/ml |
| CC[C@H](C)[C@H](N)C(=O)N[C@@H](CC(C)C)C(=O)N[C@@H](Cc1c[nH]cn1)C(=O)N[C@@H](CCC(=O)O)C(=O)N1CCC[C@H]1C(=O)N[C@H](C(=O)N[C@@H](Cc1c[nH]cn1)C(=O)NCC(=O)N[C@H](C(=O)O)C(C)C)C(C)C [HIV Pol.476 H3] |  |  | 1 µg/mL |
| CC[C@H](C)[C@H](NC(=O)CNC(=O)[C@H](Cc1ccccc1)NC(=O)[C@H](Cc1ccccc1)NC(=O)[C@H](CC(C)C)NC(=O)[C@H](CCC(N)=O)NC(=O)[C@H](CC(C)C)NC(=O)[C@@H](N)Cc1ccc(O)cc1)C(=O)N[C@@H](CCC(=O)O)C(=O)N[C@H](C(=O)O)C(C)C [MAGE2.157 F5] | 100 fold | 10 fold | 10^−2 μg/ml |
| CC[C@H](C)[C@H](NC(=O)CNC(=O)[C@H](Cc1ccccc1)NC(=O)[C@@H](NC(=O)[C@H](CC(C)C)NC(=O)[C@H](CCC(N)=O)NC(=O)[C@H](CC(C)C)NC(=O)[C@@H](N)Cc1ccc(O)cc1)[C@@H](C)CC)C(=O)N[C@@H](CCC(=O)O)C(=O)N[C@H](C(=O)O)C(C)C [MAGE2.157 I5] | 10,000 fold | 100 fold | 10^−2 μg/ml |
